Only a part of the results on these compounds is given; other tests are left out.

Protein sequences, listed by entry. Tags and fused reporters are not part of them. Lines headed by an entry give the natural chain unless they say otherwise; changes in a name come on top.
UniProt P04925, whole entry, looked up, stated change not applied: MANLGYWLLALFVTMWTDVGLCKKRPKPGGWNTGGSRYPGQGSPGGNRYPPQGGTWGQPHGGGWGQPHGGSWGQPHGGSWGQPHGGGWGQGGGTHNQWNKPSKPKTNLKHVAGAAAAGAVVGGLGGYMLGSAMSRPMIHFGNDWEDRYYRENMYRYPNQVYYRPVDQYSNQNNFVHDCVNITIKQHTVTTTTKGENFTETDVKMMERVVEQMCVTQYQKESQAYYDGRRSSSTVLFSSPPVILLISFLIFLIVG

This test deals with ΔCR PrP (Mus musculus, UniProt P04925, DEL105-125).

Regarding `C[n+]1ccc(C2=C3C=CC(=N3)C(c3cc[n+](C)cc3)=c3ccc4[n]3[Fe+][n]3c2ccc3C(c2cc[n+](C)cc2)=C2C=CC(=N2)C=4c2cc[n+](C)cc2)cc1` [Fe(III)-TMPyP], the IC50 was 1.7 µM.
